Reference: patent US8557848B2, “4,5-ring annulated indole derivatives for treating or preventing of HCV and related viral infections” (Merck Sharp & Dohme Corp., priority 2006, dated 2013)

Tests used:
[1] = tested on: HCV replicon cells (replicon RNA level); assay: Cell-Based HCV Replicon Assay; conditions: replicon RNA level by real time PCR (Taqman), cells harvested on day 3
Method: To measure cell-based anti-HCV activity of the a Compound of Formula (I), replicon cells were seeded at 5000 cells/well in 96-well collagen I-coated Nunc plates in the presence of the Compound of Formula (I). Various concentrations of a Compound of Formula (I), typically in 10 serial 2-fold dilutions, were added to the assay mixture, with the starting concentration ranging from 250 μM to 1 μM. The final concentration of DMSO was 0.5%, fetal bovine serum was 5%, in the assay media. Cells were harvested on day 3 by the addition of 1× cell lysis buffer (Ambion cat #8721). The replicon RNA level was measured using real time PCR (Taqman assay). The amplicon was located in 5B. The PCR primers were: 5B.2F, ATGGACAGGCGCCCTGA; 5B.2R, […]; the probe sequence was FAM-labeled CACGCCATGCGCTGCGG. GAPDH RNA was used as endogenous control and was amplified in the same reaction as NS5B (multiplex PCR) using primers and VIC-labeled probe recommended by the manufacturer (PE Applied Biosystem). The real-time RT-PCR reactions were run on ABI PRISM 7900HT Sequence Detection System using the following program: 48° C. for 30 min, 95° C. for 10 min, 40 cycles of 95° C. for 15 sec, 60° C. for 1 min. The ΔCT values (CT5B-CTGAPDH) were plotted against the concentration of test compound and fitted to the sigmoid dose-response model using XLfit4 (MDL). EC50 was defined as the concentration of inhibitor necessary to achieve ΔCT=1 over the projected baseline; EC90 the concentration necessary to achieve ΔCT=3.2 over the baseline. Alternatively, to quantitate the absolute amount of replicon RNA, a standard curve was established by including serially diluted T7 transcripts of replicon RNA in the Taqman assay. All Taqman reagents were from PE Applied Biosystems. Such an assay procedure was described in detail in e.g. Malcolm et al., Antimicrobial Agents and Chemotherapy 50: 1013-1020 (2006).
HCV Replicon assay data for selected Compounds of Formula (I) is provided below in Table 1, wherein the compound numbers correspond to the compound numbering set forth in the above specification. The data is designated as follows: “A” for EC50 values less than 0.5 micromolar (μM), “B” for EC50 values between 0.5 and 1.5 μM and “C” for EC50 values greater than 1.5 μM.

[2] = target: HCV NS5B polymerase (NS5BΔCT21, from HCV-Con 1 isolate, genotype 1b) (Hepatitis C virus genotype 1b, UniProt Q9WMX2); assay: HCV NS5B Polymerase Inhibition Assay; conditions: [33P]-CTP incorporation, 22° C. for 2 hours
Description: A chemically synthesized 75-mer version, designated DCoH75, whose sequence matches the 3′-end of D-RNA, and DCoH75ddC, where the 3′-terminal cytidine of DCoH75 is replaced by dideoxycytidine, were used for assaying the NS5B enzyme activity as described in Ferrari et al., 12th International Symposium on HCV and Related Viruses, P-306 (2005). The sequence of the template RNA was: 5′-UGUGCCGGUCUUUCUGAACGGGAUAUAAACCUGGCCAGCUUCAUCGAACAAGUUGCCGUGUCUAUGACAUAGAUC-3′. A soluble C-terminal 21-amino acid truncated NS5B enzyme form (NS5BΔCT21, from HCV-Con 1 isolate, genotype 1b, Genbank accession number AJ238799) was produced and purified from Escherichia coli as C-terminal polyhistidine-tagged fusion protein as described in Ferrari et al., J. Virol. 73:1649-1654 (1999). A typical assay contained 20 mM Hepes pH 7.3, 10 mM MgCl2, 60 mM NaCl, 100 μg/ml BSA, 20 units/ml RNasin, 7.5 mM DTT, 0.1 μM ATP/GTP/UTP, 0.026 μM CTP, 0.25 mM GAU, 0.03 μM RNA template, 20 μCi/ml [^33P]-CTP, 2% DMSO, and 30 or 150 nM NS5B enzyme. Reactions were incubated at 22° C. for 2 hours, then stopped by adding 150 mM EDTA, washed in DE81 filter plate in 0.5M di-basic sodium phosphate buffer, pH 7.0, and counted using Packard TopCount after the addition of scintillation cocktail. Polynucleotide synthesis was monitored by the incorporation of radiolabeled CTP. The effect of the Compounds of Formula (I) on the polymerase activity was evaluated by adding various concentrations of a Compound of Formula (I), typically in 10 serial 2-fold dilutions, to the assay mixture. The starting concentrations ranged from 200 μM to 1 μM. An IC50 value for the inhibitor, defined as the compound concentration that provides 50% inhibition of polymerase activity, was determined by fitting the cpm data to the Hill equation Y=100/(1+10^((LogIC50-X)*HillSlope)), where X is the logarithm of compound concentration, and Y is the % inhibition. Ferrari et al., 12th International Symposium on HCV and Related Viruses, P-306 (2005) described in detail this assay procedure. […]

Row | Compound | EC50 [1] [nM] | EC50 ([1]; listed as 6) [nM] | IC50 [2] [nM]
1 | CS(=O)(=O)NC(=O)c1c(-c2ccc[nH]c2=O)c2c3sccc3ccc2n1Cc1ccc(F)cc1F | > 1500 | < 500 | < 25
2 | CS(=O)(=O)NC(=O)c1c(-c2ccc[nH]c2=O)c2c3occ(Cl)c3ccc2n1Cc1cc(F)ccc1F | < 500 |  | < 25
3 | O=C(O)c1c(-c2ccc[nH]c2=O)c2c3occc3ccc2n1Cc1cc(F)ccc1F | < 500 |  | 25 to 100

The structures given here were assigned with low confidence; some may be wrong.
